Anti-infective test results gathered from many reports (values: NIAID ChemDB through PubChem).

Shared fields: tests in culture; agent: Mycobacterium tuberculosis

Blank or dashed fields: not listed here. A number after MIC or MFC names an inhibition level or a share of isolates. Neighbouring rows are from separate reports. Percent inhibition refers to the dose given; in toxicity tests it is the harm to the cells. ECn: concentration that inhibits the pathogen or its effect by n%. MIC bound comes from a single tested concentration.

smiles,conditions,cells,strain,method,read-out,tested at,changes,value
Cc1cc(/C=C2\SC(=S)NC2=O)c(C)n1-c1ccccc1,,,,resazurin,MIC bound,,,>6.25 µg/mL
Brc1ccc(-c2nc3sc(C4CCCCC4)nn3c2CN2CCCCC2)cc1,,,H37Rv,BACTEC,inhibition,6.25 µg/mL,,<90%
Cc1ccc(C2SC=C3SC(/N=C\c4ccccc4)=NN32)cc1,,,H37Rv,resazurin,MIC,,,12.5 µg/mL
CN(C)c1ccc2nc3c(cc(Nc4cccc5cccc(Nc6cc7ccccc7c7nc8ccc(N(C)C)cc8[o+]c67)c45)c4ccccc43)[o+]c2c1,,,H37Rv,BACTEC,MIC bound,,,≤12.5 µg/mL
CO[C@H]1/C=C/O[C@@]2(C)Oc3c(C)c(O)c4c(O)c(c(/C=N/N5CCN(C)CC5)c(O)c4c3C2=O)NC(=O)/C(C)=C\C=C\[C@H](C)[C@H](O)[C@@H](C)[C@@H](O)[C@@H](C)[C@H](OC(C)=O)[C@@H]1C,,,H37Rv,reporter gene / fluorescence,MIC,,,0.0055 µM
CCCCSc1nc(Cl)nc2nc[nH]c12,,,H37Rv,,inhibition,6.25 µg/mL,,0%
COc1ccc2ncc(COC(=O)Nc3ccccc3)c(COC(=O)Nc3ccccc3)c2c1,,,H37Rv,resazurin,MIC,,,>12.5 µg/mL
Cc1cn2c(C(=O)NCc3ccc(N4CCC(c5ccc(OC(F)(F)F)cc5)CC4)cc3)c(C)nc2s1,,,H37Rv,resazurin / fluorescence,MIC,,cydKO,0.002 µM
CCOC(=O)c1cc(C(=O)c2ccc(Cl)cc2)n2c1ccc1c3ncccc3ccc12,,,H37Rv,reporter gene / fluorescence,EC50,,,>100 µM
CC(C)=NNC(=O)CC(=O)NN=C(C)C,,,,,MIC,,,>200 µg/mL
CC(C)NCCCNC1=C(Cl)C(=O)c2ccccc2C1=O,,,H37Rv,BACTEC,MIC,,,12.5 µg/mL
C[C@H]1COc2c(N3C[C@@H](N)C4(CCC4)C3)c(F)cc3c(=O)c(C(=O)O)cn1c23,,,Rifampicin-resistant (5 strains pooled),,Mean MIC,,,1.1 µg/mL
N/C(=N\N=C\c1ccccc1)SCc1ccc(Br)cc1,21 d,,H37Rv,broth dilution,MIC,,,32 µM
COc1cccc(Sc2nc(Cl)nc3nc[nH]c23)c1,,,H37Rv,,inhibition,6.25 µg/mL,,0%
O=C(Cc1ccccc1)NNC(=O)Cc1ccccc1,,,,,MIC,,,100 µg/mL
C[C@H]1COc2c(N3C[C@@H]4CCCN[C@@H]4C3)c(F)cc3c(=O)c(C(=O)O)cn1c23,,,Rifampicin-resistant (5 strains pooled),,Mean MIC,,,0.4 µg/mL
Cc1ccccc1Sc1ncnc2nc[nH]c12,,,H37Rv,,MIC90,,,>12.5 µg/mL
CCCCCCCCCCCCNC(CCO)C1OC2OC(C)(C)OC2[C@H]1OCc1ccccc1,,,H37Ra,,MIC,,,6.25 µg/mL
N/C(=N\N=C\c1cc(Cl)ccc1O)SCc1ccc(F)cc1,14 d,,H37Rv,broth dilution,MIC,,,16 µM
Cc1ccc(Nc2cc(Cl)nc(N)n2)cc1,,,H37Rv,BACTEC,inhibition,12.5 µg/mL,,87%
Cc1ccc(C)c(Sc2ccncc2)c1,,,H37Rv,,MIC90,,,>6.25 µg/mL
CCCCCCCCCCCCCCCCCCC1OC2OC(C)(C)OC2[C@@H]1OCc1ccccc1,,,H37Rv,,MIC,,,<12.5 µg/mL
Brc1ccc(-c2cn3nc(C4CCCCC4)sc3n2)cc1,,,H37Rv,BACTEC,inhibition,6.25 µg/mL,,<90%
C/C(CCC(=O)O)=N/NC(=O)c1ccccc1Cl,,,,,MIC,,,40 µg/mL
CCOc1ccc(/C=C/C(=O)c2sc(NNC(C)=O)nc2C)cc1,,,H37Rv,resazurin,MIC bound,,,>6.25 µg/mL
COc1ccc(Sc2ncnc3nc[nH]c23)cc1,,,H37Ra,,MIC,,,>12.8 µg/mL
CCCCCCCCCCCCCCCCNC(CCO)[C@@H]1OC2OC(C)(C)OC2C2OC(C)(C)OC21,,,H37Rv,,MIC,,,<25 µg/mL
O=Cc1c(-c2ccc(Br)cc2)nc2sc(C3CCCCC3)nn12,,,H37Rv,BACTEC,inhibition,6.25 µg/mL,,<90%
CCOC(=O)c1cc(C(=O)c2ccccc2)n2c1ccc1c3ncccc3ccc12,,,H37Rv,reporter gene / fluorescence,EC90,,,>200 µM
CO[C@@H]1/C=C\C=C(/C)C(=O)NC2=CC(=O)C(NCCCl)=C(C[C@@H](C)C[C@@H](OC)[C@H](O)[C@H](C)/C=C(\C)[C@H]1OC(N)=O)C2=O,,,H37Rv,BACTEC,MIC bound,,,>12.5 µg/mL
N/C(=N\N=C\c1ccccc1O)SCc1cccc(Cl)c1,14 d,,H37Rv,broth dilution,MIC,,,32 µM
Cc1cn2c(C(=O)NCc3cccc(F)c3)c(C)nc2s1,,,H37Rv,luminescence,MIC,,,>100 µM
Clc1ccc(/C=N\C2=NN3C(=CSC3c3ccccc3)S2)cc1,,,H37Rv,resazurin,MIC,,,6.25 µg/mL
CO[C@H]1/C=C/O[C@@]2(C)Oc3c(C)c(O)c4c(O)c(cc(O)c4c3C2=O)NC(=O)/C(C)=C\C=C\[C@H](C)[C@H](O)[C@@H](C)[C@@H](O)[C@@H](C)[C@H](OC(C)=O)[C@@H]1C,,,H37RV ATCC9360,,MIC,,,0.05 µg/mL
CNn1cc(C(=O)O)c(=O)c2cc(F)c(N3CCN(C)CC3)cc21,,,22 strains,,MIC50,,,4 µg/mL
COc1ccc(CS/C(N)=N/N=C/c2cc(Br)ccc2O)cc1,14 d,,H37Rv,broth dilution,MIC,,,62.5 µM
Cc1cc2no[n+]([O-])c2cc1C,,VERO,H37Rv,,MIC,,,3.13 µg/mL
CCCCCCCCCCCCCNC(CCO)[C@H]1OC2OC(C)(C)OC2C2OC(C)(C)OC21,,,H37Ra,,MIC,,,12.5 µg/mL
Oc1ccc(C2SC=C3SC(/N=C\c4ccccc4)=NN32)cc1,,,H37Rv,resazurin,MIC,,,12.5 µg/mL
COc1c(N2CCNC(C)C2)c(F)cc2c(=O)c(C(=O)O)cn(C3CC3)c12,,,Rifampicin-sensitive (7 strains pooled),,Mean MIC,,,0.2 µg/mL
CN(C)CC1CN(/N=C/C=C/c2ccc([N+](=O)[O-])o2)C(=O)O1,,,H37Rv,BACTEC,MIC bound,,,>12.5 µg/mL
CO[C@H]1/C=C/O[C@@]2(C)Oc3c(C)c(O)c4c(O)c(c5c(c4c3C2=O)NC2(CCN(CC(C)C)CC2)N=5)=NC(=O)/C(C)=C\C=C\[C@H](C)[C@H](O)[C@@H](C)[C@@H](O)[C@@H](C)[C@H](OC(C)=O)[C@@H]1C,,,2237 (rifampicin-susceptible),,MIC,,,0.031 µg/mL
NNS(=O)(=O)c1ccccc1,,,,,MIC,,,>200 µg/mL
Cc1cn2c(C(=O)NCc3ccc(C(F)(F)F)cc3)c(C)nc2s1,,,H37Rv,resazurin / fluorescence,MIC,,K14b00DS,0.25 µM
c1ccc(-c2nc3sc(-c4cccs4)nn3c2CN2CCCCC2)cc1,,,H37Rv,BACTEC,inhibition,6.25 µg/mL,,<90%
C=CC1=C(C)/C(=C/C2=C(C)C(CCC(=O)O)C(CC3=NC(/C=C4\NC(=O)C(C)=C4C=C)=C(C)C3CCC(=O)O)=N2)NC1=O,,,H37Rv,BACTEC,MIC bound,,,>128 µg/mL
N/C(=N\N=C\c1cc(Br)ccc1O)SCc1ccc(F)cc1,21 d,,H37Rv,broth dilution,MIC,,,16 µM
C=C1CC[C@@H]2[C@](C)(CO)[C@H](O)CC[C@@]2(C)[C@@H]1C/C=C1/C(=O)OC[C@H]1O,,,H37Rv,BACTEC,MIC,,,≥12.5 µg/mL
O=C(c1ccc([N+](=O)[O-])o1)N1CCc2cc(N3CCN(Cc4ccccc4)CC3)ccc2C1,,,UT18,,MIC,,,0.006 µg/mL
N/C(=N\N=C\c1cc(Cl)cc(Cl)c1O)SCc1ccc(Br)cc1,21 d,,H37Rv,broth dilution,MIC,,,32 µM
Cc1nn(C(=O)c2ccncc2)c(-c2ccccc2)c1N=Nc1nc2ccc([N+](=O)[O-])cc2s1,,,H37Rv,resazurin,inhibition,6.25 µg/mL,,99%
Clc1nc(Sc2ccncc2)c2[nH]cnc2n1,,,H37Ra,,MIC,,,>12.8 µg/mL
O=[N+]([O-])c1ccc(C2=NOC(c3ccc(N4CCN(Cc5ccccc5)CC4)cc3)C2)o1,,,HN878,,MIC,,,0.012 µg/mL
O=C(NNC(=O)c1ccccc1O)c1ccccc1O,,,,,MIC,,,>200 µg/mL
Cc1cn2c(C(=O)NCc3ccccc3C(F)(F)F)c(C)nc2s1,,,H37Rv,luminescence,MIC,,,>100 µM
CC1CC(c2ccc3ccccc3c2)NCCNC(c2ccc3ccccc3c2)CC(C)NCCN1,,VERO,H37Rv,,MIC,,,>6.25 µg/mL
NNC(=O)c1ccncc1,,,Rifampicin-resistant (5 strains pooled),,Mean MIC,,,22 µg/mL
O=C1C(Cl)C(c2ccccc2)N1C1=NN2C(=CSC2c2ccccc2)S1,,,H37Rv,resazurin,MIC,,,6.25 µg/mL
CN[C@H]1CCN(c2c(F)cc3c(=O)c(C(=O)O)cn4c3c2OC[C@@H]4C)C1,,,Rifampicin-resistant (5 strains pooled),,Mean MIC,,,9.7 µg/mL
N[C@@H]1CONC1=O,,,35 strains,agar,inhibition,20 µg/mL,,91%
C[C@]1(COc2ccc(N3CCC(Oc4ccc(OC(F)(F)F)cc4)CC3)cc2)Cn2cc([N+](=O)[O-])nc2O1,,,HN878,,MIC,,,0.4 µg/mL
CC1(C)OC2OC(C(CCO)NC3CC3)[C@@H](OCc3ccccc3)C2O1,,,H37Ra,,MIC,,,50 µg/mL
O=C1CC(=O)NC(=NN2C(=O)CSC2C(=O)c2ccco2)N1,,,H37Rv,BACTEC,MIC bound,,,>12.5 µg/mL
N/C(=N\N=C\c1cc(Br)ccc1O)SCc1ccc(C(F)(F)F)cc1,14 d,,H37Rv,broth dilution,MIC,,,32 µM
CCCCCCCNC(CCO)[C@H]1OC2OC(C)(C)OC2C2OC(C)(C)OC21,,,H37Rv,,MIC,,,>100 µg/mL
Cc1ccc(Sc2nc(Cl)nc3nc[nH]c23)cc1,,,H37Rv,,inhibition,6.25 µg/mL,,0%
COC(=O)c1c(C(=O)OC)c2ccc3c4ncccc4ccc3n2c1C(=O)c1ccc(Cl)cc1,,,H37Rv,reporter gene / fluorescence,EC50,,,>50 µM
CCCCCCSc1nc(Cl)nc2nc[nH]c12,,,H37Rv,,inhibition,6.25 µg/mL,,0%
CN1C(=O)C23CCCN2C(=O)C1(C)SC(=N)S3,,,H37Rv,BACTEC,MIC bound,,,>12.5 µg/mL
Nc1ccc(C(=O)O)c(O)c1,,,35 strains,agar,EC50,,,<10 µg/mL
C/C=C1/C[C@@H](C)[C@@](C)(O)C(=O)OC[C@H]2CCN3CC[C@@H](OC1=O)[C@@H]23.O=C(O)[C@H](O)[C@@H](O)C(=O)O,,,H37Rv,BACTEC,MIC,,,≥12.8 µg/mL
CCc1cc(C(N)=S)ccn1,,,25 strains,agar,EC50,,,<10 µg/mL
COc1ccc(C(=O)[C@@H]2C[C@H](C#N)[C@@H]3C=Cc4c(ccc5cccnc45)N23)cc1,,,H37Rv,reporter gene / fluorescence,EC90,,,>200 µM
Cc1cn2c(C(=O)NCc3ccc(N4CCOCC4)c(F)c3)c(C)nc2s1,,,H37Rv,resazurin / fluorescence,MIC,,QcrB7 S182P,25 µM
Cc1c(OCC(F)(F)F)ccnc1CSc1nc2ccccc2[nH]1,7 d,,H37Rv,turbidity,MIC90,,,1.02 µM
N#CC1(c2nc3ccccc3o2)C(=O)C(=O)N(C2C3CC4CC(C3)CC2C4)C(=O)C1=O,,,H37Rv,resazurin,MIC,,,6.25 µg/mL
CCOC(=O)c1cc(C(=O)c2ccc(C)cc2)n2c1ccc1c3ncccc3ccc12,,,H37Rv,reporter gene / fluorescence,MIC,,,>200 µM
CCOC(=O)C(=O)Cc1ccc(C(=N)N)cc1,,,H37Rv,resazurin,inhibition,6.25 µg/mL,,1%
O=C1CSC(c2c(-c3ccccc3)nc3sc(C4CCCCC4)nn23)N1c1ccccc1,,,H37Rv,BACTEC,inhibition,6.25 µg/mL,,<90%
C=CCNc1nc2c(s1)c1c(O)c3c(O)c(C)c4c(c32)C(=O)[C@@](C)(O/C=C/[C@H](OC)[C@@H](C)[C@@H](OC(C)=O)[C@H](C)[C@H](O)[C@H](C)[C@@H](O)[C@@H](C)/C=C/C=C(/C)C(=O)N1)O4,,,H37Rv,resazurin,MIC bound,,,<6.25 µg/mL
Cc1cn2c(C(=O)NCc3ccc(N4CCN(c5ccc(C(F)(F)F)cn5)CC4)c(F)c3)c(C)nc2s1,,,H37Rv,resazurin / fluorescence,MIC,,,0.004 µM
CNC(=O)Oc1c(C)[nH]ccc1=O,,,H37Rv,BACTEC,inhibition,12.5 µg/mL,,-6%
CCCCCCCNC(CCO)C1OC2OC(C)(C)OC2[C@@H]1OC,,,H37Rv,,MIC,,,50 µg/mL

Repeating the first 9 entries:

smiles	conditions	cells	strain	method	read-out	tested at	changes	value
Cc1cc(/C=C2\SC(=S)NC2=O)c(C)n1-c1ccccc1				resazurin	MIC bound			>6.25 µg/mL
Brc1ccc(-c2nc3sc(C4CCCCC4)nn3c2CN2CCCCC2)cc1			H37Rv	BACTEC	inhibition	6.25 µg/mL		<90%
Cc1ccc(C2SC=C3SC(/N=C\c4ccccc4)=NN32)cc1			H37Rv	resazurin	MIC			12.5 µg/mL
CN(C)c1ccc2nc3c(cc(Nc4cccc5cccc(Nc6cc7ccccc7c7nc8ccc(N(C)C)cc8[o+]c67)c45)c4ccccc43)[o+]c2c1			H37Rv	BACTEC	MIC bound			≤12.5 µg/mL
CO[C@H]1/C=C/O[C@@]2(C)Oc3c(C)c(O)c4c(O)c(c(/C=N/N5CCN(C)CC5)c(O)c4c3C2=O)NC(=O)/C(C)=C\C=C\[C@H](C)[C@H](O)[C@@H](C)[C@@H](O)[C@@H](C)[C@H](OC(C)=O)[C@@H]1C			H37Rv	reporter gene / fluorescence	MIC			0.0055 µM
CCCCSc1nc(Cl)nc2nc[nH]c12			H37Rv		inhibition	6.25 µg/mL		0%
COc1ccc2ncc(COC(=O)Nc3ccccc3)c(COC(=O)Nc3ccccc3)c2c1			H37Rv	resazurin	MIC			>12.5 µg/mL
Cc1cn2c(C(=O)NCc3ccc(N4CCC(c5ccc(OC(F)(F)F)cc5)CC4)cc3)c(C)nc2s1			H37Rv	resazurin / fluorescence	MIC		cydKO	0.002 µM
CCOC(=O)c1cc(C(=O)c2ccc(Cl)cc2)n2c1ccc1c3ncccc3ccc12			H37Rv	reporter gene / fluorescence	EC50			>100 µM